System: ZIKV^Br
Assay: Virus yield reduction assay, ZIKV^Br on Huh-7 cells
Format: cell-based, Zika virus
[1] = CC50/EC50, ZIKV^Br on Huh-7 cells
[2] = Table S2, this paper data, ZIKV, Huh-7 cells, Na = no detected antiviral activity, ratio CC50 / EC50

Row | Compound | SI [1] | SI [2]
1 | CC(C)c1nc2cc3cccnc3c(Cl)c2[nH]c1=O [PS462] | < 2.9 | 3
2 | O=c1[nH]c2cc3cccnc3c(Cl)c2nc1-c1cccs1 [PS1097, 5‐chloro‐3‐(thiophen‐2‐yl) pyrido[2,3‐g] quinoxalin‐2(1H)‐one] | 331.7 | 331.7
3 | CC(C)OC(=O)[C@H](C)N[P@](=O)(OC[C@H]1O[C@@H](n2ccc(=O)[nH]c2=O)[C@](C)(F)[C@@H]1O)Oc1ccccc1 [SOF, Sofosbuvir, reference compound] | 184 | 184
4 | Cn1c(=O)c(-c2cccs2)nc2c(Cl)c3ncccc3cc21 [PS1240] | 142.3 | 142.3
5 | O=c1nc(NO)ccn1[C@@H]1O[C@H](CO)[C@@H](O)[C@H]1O [EIDD-1931, β‐D‐N4‐hydroxycytidine, reference compound] |  | 87

From paper PMC12445440 (Journal of Medical Virology, 2025)
